Broadly, the Km is the concentration of substrate that gives half-maximal velocity. A word on the Vmax: it is the rate approached at saturating substrate. The term kcat/Km denotes the turnover number divided by the Michaelis constant.

Among the data in PMC10216065 are Km, Vmax and kcat/Km values, retold here.

The subject of the series is N[C@@H](CS)C(=O)O. The series is described as follows: purified protein. As to conditions: pH 8.0; 37.0 °C.

On to “Mtb SufS (Rv1464) with Zn-SufU (Rv1465) (Mycobacterium tuberculosis H37Rv)”, for which the Km is 103 µM, the Vmax amounted to 1.25 µmol/min/mg and the kcat/Km worked out at 9100 M⁻¹ s⁻¹.
